Target: RSV-F (amino acids 1-529), (Extracellular Domain) protein (His tag), ABIN2006856 (respiratory syncytial virus) (UniProt P03420)
Assay: ELISA, RSV F coated, anti-human IgG-HRP

SEQ ID NO: 193, b1b2-Fc (NRP1, Y297A, S345A, Y353A, no VEGF binding) (Fc fusion)
EC50: 749 nM

SEQ ID NO: 208, Nrp1(b1) Nrp2(b2)-Fc (Y297A, S345A, Y353A, no VEGF binding) (Fc fusion)
EC50: 1570 nM

Reference: patent publication US20230312684A1, “Neuropilin and angiotensin converting enzyme 2 fusion peptides for treating viral infections” (published 2023)
